Reference: patent publication US20250145946A1, “GENERATION OF PURE RETINAL CELLS FROM HUMAN PLURIPOTENT STEM CELLS” (Wisconsin Alumni Research Foundation, priority 2023, published 2025)

Test system: H9 human embryonic stem cells (hESCs)
Experiment: qPCR analysis of neural and retinal gene expression during hPSC neural/retina differentiation
Format: cell-based
Details: time course, BMP2 from day 6; FIG. 11a
Method: hPSCs (H9, IMR-90-4 and WC30) were maintained under E8/feeder-free culture condition and passaged at 1:20 ratio with Rock inhibitor. After each new passage, the cells were fed with E8 medium for another 1˜2 days to reach 30-40% confluence. To initiate retina differentiation, culture medium was replaced with Retina Induction Medium (RIM) containing Neural induction medium (NIM) comprising DMEM/F12 media containing 1% N2 and 1× nonessential amino acids (NEAA) supplemented with 10 μM SB431542 (TGF inhibitor, Stemgent, 04-0010-10); this new passage day was counted as day 0 (DO) of retina differentiation. Cells were then fed daily with RIM, or every other day based on the cell density. On day 4, the cells were dissociated by ReLeSR (STEM CELL) or EDTA and re-suspended in the fresh RIM containing 0.5 micromolar (μM) Rock inhibitor. Cell clusters were thereafter transferred to a cell culture flask and cultured in suspension. On day 5, the resulting cell spheres were fed with RIM without SB431542. […]
Total RNA was isolated with the RNeasy Plus Mini Kit according to the manufacturer's instructions. For quantitative PCR (qPCR), cDNA was synthesized using PrimeScript RT Reagent Kit (Takara). qPCR was performed using iTaq Universal SYBR Green Supermix (Bio-Rad). […]

B1: BMP2: bone morphogenic protein variant species; BMP activator (R&D SYSTEMS, 355-BM) (protein, UniProt P12643 283-396, looked up)
Bone morphogenetic protein 2: QAKHKQRKRLKSSCKRHPLYVDFSDVGWNDWIVAPPGYHAFYCHGECPFPLADHLNSTNHAIVQTLVNSVNSKIPKACCVPTELSAISMLYLDENEKVVLKNYQDMVVEGCGCR
Question: For B1, which “expression of retinal lineage genes PAX6, SIX6 and VSX2 over time” value is on record?
Answer: increased
